Measured values from several laboratories, pooled; numbers as filed in NIAID ChemDB.

All rows: toxicity to cultured cells; cell line: PBMC; endpoint: CC50

a–b is a range or a potency band.

| compound | method | result |
|---|---|---|
| Cn1c2ccccc2c(=O)c2c(O)cccc21 |  | 12.4 µg/mL |
| O=[N+]([O-])c1ccc(/C=C/c2ccc(N=Nc3ccc(/C=C/c4ccc([N+](=O)[O-])cc4S(=O)(=O)O)c(S(=O)(=O)O)c3)cc2S(=O)(=O)O)c(S(=O)(=O)O)c1 |  | >100 µM |
| CSc1ccc(NC(=O)NCCc2ccc3c(n2)NCCC3)cc1 |  | 1.3 µM |
| Cc1cc(C)cc(Cn2c(=O)ccn(CC#N)c2=O)c1 |  | >464 µM |
| CCCCCCCCCCCCCCCCOCCOP(=O)(O)CO[C@H](C)Cn1cnc2c(N)ncnc21 | XTT / absorbance | >100 µM |
| COc1ccc(CNC(=O)NCCc2cccc(-n3ccnc3)n2)cc1 |  | 14.3 µM |
| CN1c2c(-c3ccccc3)nn(CC(=O)N/N=C/c3cccc(Br)c3)c2-c2ccccc2S1(=O)=O |  | 31.8 µM |
| COc1cc2cc[n+](C)c3c2c(c1OC)NC=C3 |  | 31.6 µM |
| CC(C)OC(=O)[C@H](C)NP(=O)(OCC(F)(F)C(F)(F)C(F)(F)Cn1c(=O)cc[nH]c1=O)Oc1ccccc1 |  | >100 µM |
| Cc1noc(C)c1-c1ccc2c(c1)N(c1cc(N)c(F)cc1F)CCC2=O | luminescence | >1 µM |
| Cc1cn([C@H]2C[C@H](F)[C@@H](CO)O2)c(=O)[nH]c1=O | XTT | >0.5 µM |
| CN(C)c1ccc(Nc2c3ccc(NC(=O)CCN4CCCC4)cc3nc3cc(NC(=O)CCN4CCCC4)ccc23)cc1 |  | 79.6 µM |
| Cc1ccccc1Cn1c(=O)ccn(CC#N)c1=O |  | >490 µM |
| CC(C)=CC[C@@H](O)C1=CC(=O)c2c(O)ccc(O)c2C1=O | trypan blue | 1.9 µM |
| O=[N+]([O-])c1ccc2c(c1)CN(c1nn3c(C(F)F)nnc3c3ccccc13)CC2 |  | 23.8–29.4 µM |
| COc1ccccc1CCNC(=O)OC[C@@H]1C=C[C@H](n2cc(C)c(=O)[nH]c2=O)O1 | tetrazolium | >100 µM |
| O=C(CCc1ccc2c(n1)NCCC2)Nc1ccc(C(F)(F)F)cc1 |  | 8 µM |
| Cn1cc(C(=O)O)c(=O)c2cc(F)c(N3CC=C(c4ccccc4)CC3)c(C(F)(F)F)c21 |  | 5 µM |
| CCCS(=O)(=O)Oc1c(OC)cc2ccnc3c2c1N(C)C=C3 |  | 1 µM |
| Cc1ccc(CCNC(=O)OC[C@@H]2C=C[C@H](n3cc(C)c(=O)[nH]c3=O)O2)cc1 | tetrazolium | >100 µM |
| COc1cc2cc[n+](CCC(C)C)c3c2c(c1OC)NC=C3 |  | 2.3 µM |
| O=C(NCCc1ccc2c(n1)NCCC2)Nc1cccc(-c2ccccc2Cl)n1 |  | 4.8 µM |
| COc1cc2c3c(cc[n+](C)c3c1OC)NC=C2 |  | 21.2 µM |
| Cc1cn([C@H]2C[C@H](F)[C@@H](COC(=O)CCCCCCCCCCC(=O)O)O2)c(=O)[nH]c1=O | XTT | >0.5 µM |
| Clc1ccc(-c2c3nc(c(-c4ccc(Cl)cc4)c4ccc([nH]4)c(-c4ccc(Cl)cc4)c4nc(c(-c5ccc(Cl)cc5)c5ccc2[nH]5)C=C4)C=C3)cc1 |  | >100 µM |
| CCOC(=O)N[C@H](C(=O)N[C@@H](Cc1ccccc1)[C@H]1O[C@H]1CC(=O)NC(Cc1ccccc1)C(C)C)C(C)(C)S(C)(=O)=O |  | >10 µM |
| O=C(NCCc1ccccc1)C1=Cc2ccncc2CC1 |  | 270 µM |
| CCN1C=Cc2nccc3cc(OC)c(OC)c1c23 |  | 11.7 µM |
| Nc1ncnc2c1ncn2[C@@H]1OC[C@H](CCP(=O)(O)O)C12CC2 |  | >100 µM |
| CCOC(=O)[C@H](C)NP(=O)(OCC(F)(F)C(F)(F)Cn1cnc2c(=O)[nH]c(N)nc21)Oc1ccccc1 |  | >100 µM |
| CCCCN1C=Cc2nccc3cc(OC)c(OC)c1c23 |  | 3.2 µM |
| N#CC1C=Cc2ccccc2N1C(=O)c1ccc(Cl)cc1 |  | >10 µM |
| CN(C)CCCN=C(N)c1ccc(C(N)=NCCCN(C)C)cc1 |  | >111 µM |
| CCCCC1=NC2CC(/C=C/C(=O)NO)=CC=C2N1CCN(CC)CC | ATP / luminescence | >50 µM |
| Cc1cn([C@H]2C[C@H](F)[C@@H](COC(=O)CCCCCCCCC(=O)O)O2)c(=O)[nH]c1=O | XTT | >0.5 µM |
| CCCCCCCN1C=Cc2nccc3cc(OC)c(OC)c1c23 |  | 2.2 µM |
| CC(C)Oc1ccccc1CNC(=O)c1ccc2cnccc2n1 |  | 20.46 µM |
| Cc1cn([C@H]2C=C[C@@H](CO)O2)c(=O)[nH]c1=O | tetrazolium | >100 µM |
| N#CCn1ccc(=O)n(Cc2cc(Cl)cc(Cl)c2)c1=O |  | 214 µM |
| CN1c2c(-c3ccccc3)nn(CC(=O)N/N=C/c3ccc(Br)cc3)c2-c2ccccc2S1(=O)=O |  | 97 µM |
| COc1ccc2c(c1)CCN(c1nn3c(C)nnc3c3ccccc13)C2 |  | 10 µM |
| Cc1nccn1-c1cccc(CCNC(=O)NCc2ccc(Cl)c(Cl)c2)n1 |  | 8.6 µM |
| Oc1ccc(-c2c3nc(c(-c4ccc(O)cc4)c4ccc([nH]4)c(-c4ccc(O)cc4)c4nc(c(-c5ccc(O)cc5)c5ccc2[nH]5)C=C4)C=C3)cc1 |  | >100 µM |
| CCOC(=O)[C@H](C)NP(=O)(OCC(F)(F)C(F)(F)Cn1ccc(N)nc1=O)Oc1ccccc1 |  | >100 µM |
| CCCCCCCCCCCCCCCC(=O)N(CCCCCCCCCCC(=O)O)CC(O)C(O)C(O[C@@H]1O[C@H](CO)[C@H](O)[C@H](O)[C@H]1O)C(O)CO |  | >246 µM |
| c1coc(-c2nnc3c4ccccc4c(N4CCc5ccccc5C4)nn23)c1 |  | 0.78 µM |
| C[n+]1cccc(-c2c3nc(c(-c4ccccc4)c4ccc([nH]4)c(-c4ccc[n+](C)c4)c4nc(c(-c5ccccc5)c5ccc2[nH]5)C=C4)C=C3)c1 |  | >100 µM |
| Cc1cn([C@H]2C=C[C@@H](CO)O2)c(=O)[nH]c1=O | XTT | >0.5 µM |
| CCCCCCCOC(=O)c1cc(O)c(O)c(O)c1 | MTT | 1718 µM |
| CC(=O)N1CCC(C(=O)N(CCCN2CCC(Cc3ccc(C(N)=O)cc3)CC2)c2ccc(C)c(Cl)c2)CC1 | trypan blue | >0.1 µM |
| C[n+]1ccc(-c2c3nc(c(-c4ccccc4)c4ccc([nH]4)c(-c4cc[n+](C)cc4)c4nc(c(-c5ccccc5)c5ccc2[nH]5)C=C4)C=C3)cc1 |  | >100 µM |
| COc1ccccc1CNC(=O)NCCc1ccc2c(n1)NCCC2 |  | 50 µM |
| CC(C)OC(=O)[C@H](C)NP(=O)(OCC(F)(F)C(F)(F)C(F)(F)Cn1cnc2c(=O)[nH]c(N)nc21)Oc1ccccc1 |  | >100 µM |
| Nc1nc2c(ncn2[C@@H]2OC[C@H](/C=C/P(=O)(O)O)C23CC3)c(=O)[nH]1 |  | >100 µM |
| C/C(=N\NC(=O)c1ccc(Cl)cc1)c1cccc(/C(C)=N/NC(=O)c2ccc(Cl)cc2)n1 | MTT | >100 µM |
| O=C(Nc1nc2ccc(C(F)(F)F)cc2s1)c1cnc(C(F)(F)F)s1 | flow cytometry | 2.509 µM |
| CC(C)C(Cc1ccccc1)NC(=O)C[C@@H]1O[C@@H]1[C@H](Cc1ccccc1)NC(=O)[C@@H](NC(=O)Cc1ccsc1)C(C)(C)S(C)(=O)=O |  | >10 µM |
| O=C(NCCc1ccc2c(n1)NCCCC2)Nc1cccc(F)c1 |  | 50 µM |
| O=C(O)c1cn(-c2ccc(Cn3cncn3)cc2)c2c(OC(F)F)c(N3CC=C(c4ccccc4)CC3)c(F)cc2c1=O |  | 1.5 µM |
| O=C(NCCc1ccc2c(n1)NCCC2)n1cnc2ccccc21 |  | 50 µM |
| CSCSc1nc(Cc2ccccc2)c(C)c(=O)[nH]1 |  | >100 µM |
| CCCOC(=O)c1cc(O)c(O)c(O)c1 | MTT | 1800 µM |
| Nc1nc2c(ncn2CC(F)(F)C(F)(F)C(F)(F)CO)c(=O)[nH]1 |  | >100 µM |
| Cc1cn([C@H]2C=C[C@@H](COC(=O)NCCc3ccc(Cl)cc3)O2)c(=O)[nH]c1=O | tetrazolium | >100 µM |
| CCc1c(Cc2ccccc2)nc(SCSC)[nH]c1=O |  | >100 µM |
| COc1ccc2[nH]c(=O)c(CN(Cc3cccnc3)S(=O)(=O)c3cccc4nsnc34)cc2c1 | MTT | 6.8 µM |
| Cc1ccc(Cn2c(=O)ccn(CC#N)c2=O)cc1 |  | >490 µM |
| O=c1ccn([C@H]2C=C[C@@H](CO)O2)c(=O)n1CCCCCCN1CCN(CCNC(=S)Nc2ccc(Br)cn2)CC1 | MTT | 98 µM |
| CN1c2c(-c3ccccc3)nn(CC(=O)N/N=C/c3cccc(Cl)c3)c2-c2ccccc2S1(=O)=O |  | 51.6 µM |
| Cc1cn(CC(F)(F)C(F)(F)C(F)(F)COP(=O)(N[C@@H](C)C(=O)OC(C)C)Oc2ccccc2)c(=O)[nH]c1=O |  | >100 µM |
| Cc1ccc(-c2ccc3c(c2)C=C(C(=O)Nc2ccc(C[N+](C)(C)C4CCOCC4)cc2)CCC3)cc1 |  | >100 µM |
| CC(C)OC(=O)[C@H](C)NP(=O)(OCC(F)(F)C(F)(F)C(F)(F)Cn1ccc(N)nc1=O)Oc1ccccc1 |  | >100 µM |
| CCOC(=O)c1cc(O)c(O)c(O)c1 | MTT | 2100 µM |
| Cc1cn([C@H]2C=C[C@@H](CO)O2)c(=O)[nH]c1=O | MTT | 42 µM |
| COc1ccc2[nH]c(C(=O)N3CCN(c4ncccc4NC(C)C)CC3)cc2c1 |  | >10 µM |
| O=C(NCCc1ccc2c(n1)NCCC2)Nc1cccc(Oc2ccccc2)c1 |  | 5.3 µM |
| Nc1ccc2c(c1)CN(c1nn3c(C(F)F)nnc3c3ccccc13)CC2 |  | >100 µM |
| Cc1cn([C@H]2C[C@H](N=[N+]=[N-])[C@@H](COC(=O)CCCCCCCCCCC(=O)O)O2)c(=O)[nH]c1=O | XTT | >0.5 µM |
| Cc1ccc(Cn2c(=O)ccn(CC#N)c2=O)cc1C |  | 434 µM |
| CCCCCCCCCCCCOC(=O)c1cc(O)c(O)c(O)c1 | MTT | 2200 µM |
| CC(C)C(Cc1ccccc1)NC(=O)C[C@@H]1O[C@@H]1[C@H](Cc1ccccc1)NC(=O)[C@@H](NC(=O)NCc1ccccc1)C(C)(C)S(C)(=O)=O |  | >10 µM |
| CN1CCCC(CNC(=O)c2nc(-c3ccccn3)[nH]c(=O)c2O)C1 | absorbance | >50 µM |
| Cn1c2ccccc2c(=O)c2c(O)cccc21 |  | 12.4 µg/mL |
| CC(C)C(Cc1ccccc1)NC(=O)C[C@@H]1O[C@@H]1[C@H](Cc1ccccc1)NC(=O)[C@@H](NC(=O)NCc1ccco1)C(C)(C)S(C)(=O)=O |  | >10 µM |
| O=C(O)CCC(CCC(=O)O)(CCC(=O)O)NC(=O)CCC(CCC(=O)NC(CCC(=O)O)(CCC(=O)O)CCC(=O)O)(CCC(=O)NC(CCC(=O)O)(CCC(=O)O)CCC(=O)O)NC(=O)CCCOC(=O)C1(C(=O)OCCCC(=O)NC(CCC(=O)NC(CCC(=O)O)(CCC(=O)O)CCC(=O)O)(CCC(=O)NC(CCC(=O)O)(CCC(=O)O)CCC(=O)O)CCC(=O)NC(CCC(=O)O)(CCC(=O)O)CCC(=O)O)C2c3cc4c5c6c3-c3c(cc7c8c3C6C3c6c-5c(cc5ccc9cc(c-8c3c9c65)C7)C4)C21 | MTT | >100 µM |
| NC(=O)c1cccc(N=O)c1 |  | 50 µM |
| COc1ccc2c(c1)CN(c1nn3c(-c4cccs4)nnc3c3ccccc13)CC2 |  | >100 µM |
| CC(C)C(Cc1ccccc1)NC(=O)C[C@@H]1O[C@@H]1[C@H](Cc1ccccc1)NC(=O)[C@@H](NC(=O)N(C)C1CC1)C(C)(C)S(C)(=O)=O |  | >10 µM |

Again, the opening 11 rows:

compound | method | result
Cn1c2ccccc2c(=O)c2c(O)cccc21 |  | 12.4 µg/mL
O=[N+]([O-])c1ccc(/C=C/c2ccc(N=Nc3ccc(/C=C/c4ccc([N+](=O)[O-])cc4S(=O)(=O)O)c(S(=O)(=O)O)c3)cc2S(=O)(=O)O)c(S(=O)(=O)O)c1 |  | >100 µM
CSc1ccc(NC(=O)NCCc2ccc3c(n2)NCCC3)cc1 |  | 1.3 µM
Cc1cc(C)cc(Cn2c(=O)ccn(CC#N)c2=O)c1 |  | >464 µM
CCCCCCCCCCCCCCCCOCCOP(=O)(O)CO[C@H](C)Cn1cnc2c(N)ncnc21 | XTT / absorbance | >100 µM
COc1ccc(CNC(=O)NCCc2cccc(-n3ccnc3)n2)cc1 |  | 14.3 µM
CN1c2c(-c3ccccc3)nn(CC(=O)N/N=C/c3cccc(Br)c3)c2-c2ccccc2S1(=O)=O |  | 31.8 µM
COc1cc2cc[n+](C)c3c2c(c1OC)NC=C3 |  | 31.6 µM
CC(C)OC(=O)[C@H](C)NP(=O)(OCC(F)(F)C(F)(F)C(F)(F)Cn1c(=O)cc[nH]c1=O)Oc1ccccc1 |  | >100 µM
Cc1noc(C)c1-c1ccc2c(c1)N(c1cc(N)c(F)cc1F)CCC2=O | luminescence | >1 µM
Cc1cn([C@H]2C[C@H](F)[C@@H](CO)O2)c(=O)[nH]c1=O | XTT | >0.5 µM

Conditions beyond the fields shown may differ between rows. Blank or dashed fields: not listed here. CCn: concentration that lowers growth or viability of the cells by n%.